Consider one molecule from PMC6315591 (Marine Drugs, 2018).

By UniProt entry, the sequences of proteins in these tests, tags left out. Residues count along the entry.
UniProt P43144, 26-479 limits assumed: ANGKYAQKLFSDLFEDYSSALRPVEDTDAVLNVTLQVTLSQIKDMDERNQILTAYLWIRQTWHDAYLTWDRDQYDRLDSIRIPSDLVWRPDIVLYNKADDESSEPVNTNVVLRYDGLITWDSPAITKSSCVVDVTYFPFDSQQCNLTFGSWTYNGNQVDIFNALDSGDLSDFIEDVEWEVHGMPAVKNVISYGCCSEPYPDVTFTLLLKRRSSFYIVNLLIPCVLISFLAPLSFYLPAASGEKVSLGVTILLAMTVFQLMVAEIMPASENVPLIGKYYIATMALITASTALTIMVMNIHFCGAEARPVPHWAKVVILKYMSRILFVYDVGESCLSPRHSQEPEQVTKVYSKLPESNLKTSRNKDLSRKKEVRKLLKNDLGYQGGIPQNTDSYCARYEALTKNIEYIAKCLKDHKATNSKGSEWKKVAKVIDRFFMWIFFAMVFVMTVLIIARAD
UniProt Q9JLB5, 25-447 limits assumed: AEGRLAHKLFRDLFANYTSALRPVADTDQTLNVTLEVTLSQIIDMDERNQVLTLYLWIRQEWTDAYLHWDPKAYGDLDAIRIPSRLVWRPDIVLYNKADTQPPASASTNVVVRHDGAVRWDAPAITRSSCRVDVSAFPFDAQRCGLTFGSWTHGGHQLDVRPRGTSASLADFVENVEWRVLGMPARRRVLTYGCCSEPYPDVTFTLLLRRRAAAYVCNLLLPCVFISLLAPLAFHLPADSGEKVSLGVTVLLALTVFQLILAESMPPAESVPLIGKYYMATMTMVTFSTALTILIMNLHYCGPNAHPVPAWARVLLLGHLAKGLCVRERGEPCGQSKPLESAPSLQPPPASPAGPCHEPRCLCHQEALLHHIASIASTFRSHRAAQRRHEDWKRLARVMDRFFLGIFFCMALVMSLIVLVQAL

The target in this assay is rat α9α10 nAChR (Rattus norvegicus, UniProt P43144+Q9JLB5).

What is called IC50 is the concentration that gives 50% inhibition. A high value points to lower potency. On to `C[C@H](N)C(=O)N[C@H]1CSSC[C@@H]2NC(=O)[C@H](C)NC(=O)[C@@H]3CCCN3C(=O)[C@H](CC(N)=O)NC(=O)[C@H](CSSC[C@@H](C(N)=O)NC(=O)[C@H](CO)NC(=O)[C@H](Cc3ccc(O)cc3)NC(=O)[C@H](Cc3c[nH]cn3)NC(=O)[C@H](CCCNC(=N)N)NC(=O)CNC2=O)NC1=O`, for which the IC50 was over 10 µM.
